Data taken from article PMC9320654, “Study on In Vitro Metabolism and In Vivo Pharmacokinetics of Beauvericin” (Toxins, 2022).

Chains of the proteins cited; added tags and fusions are not shown.
UniProt P05177, whole entry: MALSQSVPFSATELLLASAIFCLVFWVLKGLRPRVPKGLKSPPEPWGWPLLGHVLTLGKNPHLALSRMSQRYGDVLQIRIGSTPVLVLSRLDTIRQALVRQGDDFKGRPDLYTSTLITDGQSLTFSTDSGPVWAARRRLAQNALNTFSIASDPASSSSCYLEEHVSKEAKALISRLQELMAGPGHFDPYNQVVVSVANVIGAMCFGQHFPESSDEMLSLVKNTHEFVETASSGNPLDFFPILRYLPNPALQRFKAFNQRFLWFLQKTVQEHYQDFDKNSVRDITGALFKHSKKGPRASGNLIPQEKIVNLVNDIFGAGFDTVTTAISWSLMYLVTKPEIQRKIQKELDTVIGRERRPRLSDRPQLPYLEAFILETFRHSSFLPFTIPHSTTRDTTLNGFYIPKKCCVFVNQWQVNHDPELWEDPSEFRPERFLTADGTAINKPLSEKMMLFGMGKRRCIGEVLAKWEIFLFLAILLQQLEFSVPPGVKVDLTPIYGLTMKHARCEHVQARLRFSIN

Target: CYP1A2 (Homo sapiens, UniProt P05177)
Assay: CYP inhibition evaluation in human liver microsomes, CYP1A2 (phenacetin)
Details: CYP1A2 in HLM; positive control, final conc. 3 μM in Table S1

**Q.** For `O=c1cc(-c2ccccc2)oc2c1ccc1ccccc12` [α-Naphthoflavone, reference compound], which “Activity (% VC)” value is on record?
**A.** 12.8 % VC
